Results of unrelated studies side by side (data: NIAID ChemDB).

Shared fields: growth or infection tests; organism: Vaccinia virus; cell line: PRK; read-out: EC50

Rows are shuffled and stem from different studies. ECn: concentration that inhibits the pathogen or its effect by n%.

{"compound": "Nc1nccc2c1ncn2[C@@H]1O[C@H](CO)[C@@H](O)[C@H]1O", "value": "0.3 µg/mL"}
{"compound": "Nc1ncnc2c1ncn2C[C@H](O)CO", "value": ">70 µg/mL"}
{"compound": "Nc1cn([C@H]2C[C@H](O)[C@@H](CO)O2)c(=O)[nH]c1=O", "value": "1 µg/mL"}
{"compound": "NC(=O)c1ncn([C@@H]2O[C@H](CO)[C@@H](O)[C@H]2O)n1", "value": "20 µg/mL"}
{"compound": "CCCC#Cc1c(C(N)=O)ncn1[C@@H]1O[C@H](CO)[C@@H](O)[C@H]1O", "value": "150 µg/mL"}
{"compound": "Nc1ccn([C@@H]2C=C(CO)[C@@H](O)[C@H]2O)c(=O)n1", "value": "0.02 µg/mL"}
{"compound": "Nc1ncnc2c1ncn2[C@@H]1C=C[C@@H](O)[C@H]1O", "value": "0.7 µg/mL"}
{"compound": "Nc1ncnc2c1ncn2C[C@H](O)CO", "value": "40 µg/mL"}
{"compound": "Nc1ncnc2c1ccn2[C@@H]1O[C@H](CO)[C@H](O)[C@H]1O", "value": "0.3 µg/mL"}
{"compound": "NC(=O)c1ncn([C@@H]2O[C@H](CO)[C@@H](O)[C@H]2O)n1", "value": "20 µg/mL"}
{"compound": "Nc1ncnc2c1ncn2[C@@H]1C[C@H](CO)[C@@H](O)C1", "value": ">100 µg/mL"}
{"compound": "Nc1nccc2c1ncn2[C@@H]1O[C@H](CO)[C@@H](O)[C@H]1O", "value": "7 µg/mL"}
{"compound": "C=C(Cl)c1cn([C@H]2C[C@H](O)[C@@H](CO)O2)c(=O)[nH]c1=O", "value": "0.7 µg/mL"}
{"compound": "Nc1nccc2c1ncn2[C@@H]1C[C@H](CO)[C@@H](O)[C@H]1O", "value": "0.5 µg/mL"}
{"compound": "Nc1nccc2c1ncn2[C@@H]1C[C@H](CO)[C@@H](O)[C@H]1O", "value": "0.8 µg/mL"}
{"compound": "Nc1ncnc2c1ncn2[C@@H]1C=C(CO)[C@@H](O)[C@H]1O", "value": "0.03 µg/mL"}
{"compound": "Nc1ncnc2c1ccn2[C@@H]1C[C@H](CO)[C@@H](O)[C@H]1O", "value": "2 µg/mL"}
{"compound": "Nc1ncnc2c1ncn2C[C@H](O)CO", "value": "20 µg/mL"}
{"compound": "Nc1nccc2c1ncn2[C@@H]1C[C@H](CO)[C@@H](O)[C@H]1O", "value": "2 µg/mL"}
{"compound": "Nc1nccc2c1ncn2[C@@H]1O[C@H](CO)[C@@H](O)[C@H]1O", "value": "7 µg/mL"}
{"compound": "O=c1[nH]cnc2c1ncn2[C@@H]1C=C(CO)[C@@H](O)[C@H]1O", "value": "2 µg/mL"}
{"compound": "O=c1[nH]c(=O)n([C@H]2C[C@H](O)[C@@H](CO)O2)cc1C(F)(F)F", "value": "0.2 µg/mL"}
{"compound": "Nc1ncnc2c1ncn2[C@H]1[C@H](O)[C@H](O)[C@]2(CO)O[C@H]12", "value": "0.1 µg/mL"}
{"compound": "NC(=O)c1ccnc([C@@H]2O[C@H](CO)[C@@H](O)[C@H]2O)c1", "value": ">400 µg/mL"}